Results on one molecule are retold here after paper PMC7105911 (Journal of Molecular Biology, 2011).

What all share (assay): SPR
On the technique in general: Surface plasmon resonance follows binding to a sensor surface in real time, without labels.

Experiment [1] has as its target T1, BB_1wnu_001 (backbone grafting 2F5 epitope scaffold on parent PDB 1wnu) (designed scaffold on Pyrococcus …).
T1 chain: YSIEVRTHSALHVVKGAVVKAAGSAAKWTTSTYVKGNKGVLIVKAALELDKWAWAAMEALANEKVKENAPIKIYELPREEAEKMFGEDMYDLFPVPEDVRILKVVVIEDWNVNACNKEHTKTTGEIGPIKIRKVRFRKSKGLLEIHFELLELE

Experiment [2] deals with T2, BB_2cx5_001 (backbone grafting 2F5 epitope scaffold on parent PDB 2cx5) (designed scaffold on Thermus …).
T2 chain: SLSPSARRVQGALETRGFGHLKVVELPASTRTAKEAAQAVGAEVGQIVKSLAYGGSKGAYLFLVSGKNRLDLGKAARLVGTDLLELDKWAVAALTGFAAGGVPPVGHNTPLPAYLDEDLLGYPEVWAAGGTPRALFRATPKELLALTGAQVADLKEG

The target in experiment [3] is T3, SC_2cx5 (side-chain grafting 2F5 epitope scaffold on parent PDB 2cx5) (designed scaffold on Thermus …).
T3 chain: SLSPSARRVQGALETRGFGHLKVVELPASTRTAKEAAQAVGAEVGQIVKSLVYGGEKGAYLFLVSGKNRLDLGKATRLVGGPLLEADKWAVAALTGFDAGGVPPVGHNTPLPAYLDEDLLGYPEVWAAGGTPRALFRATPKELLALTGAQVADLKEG

B1: 2F5 monoclonal antibody (2F5 IgG) (antibody, V domains shown)
VH: RITLKESGPPLVKPTQTLTLTCSFSGFSLSDFGVGVGWIRQPPGKALEWLAIIYSDDDKRYSPSLNTRLTITKDTSKNQVVLVMTRVSPVDTATYFCAHRRGPTTLFGVPIARGPVNAMDVWGQGITVTISS
VL: ALQLTQSPSSLSASVGDRITITCRASQGVTSALAWYRQKPGSPPQLLIYDASSLESGVPSRFSGSGSGTEFTLTISTLRPEDFATYYCQQLHFYPHTFGGGTRVDVR
B1: the values for the koff in experiment [1], in experiment [2] and in experiment [3] were 0.073 s⁻¹, 0.00179 s⁻¹ and 0.0236 s⁻¹, respectively. Further, the kon in experiment [1] came to 8.8e+06 M⁻¹ s⁻¹; in experiment [2], 1.31e+06 M⁻¹ s⁻¹; in experiment [3], 587000 M⁻¹ s⁻¹.

As usually defined, the koff is the first-order rate constant of dissociation. Broadly, the kon is a measure of how fast the partners come together.
